Source: paper PMC4513871
Construct, isoform or probe ends are uncertain for at least one entry. At least one verdict was read from the data and is not stated in words by the source.

System: PhoB + TctD
Test: EMSA
Details: 30 uM TctD plus PhoB, slight supershift; EMSA: 20 ng probe, 15 ul, 20 mM Tris-HCl pH 7.5, 50 mM NaCl, 1 mM EDTA, 1 mM DTT, 100 ug/ml BSA, 150 ng/ul poly(dIdC), 5% glycerol, room temperature 30 min; recombinant protein; label: 5' IRDye700; probe letters rebuilt from the primers and the genome

GCATCCTGCCGAGGGTGCCAGCGTTGAACAACGGCGCGTTACATCCGGCGACAATGTCATACAAGCATCACGCCCCTGTCACAGGGGTGACACCGCGCCTTCCTAGCCTGAGCTTGCACAACAAAGCCGAGCGGCCGCAACCCGCGGCGCCGGCCCAAGGAGGCCCAGGC (double strand) [PA14_56560 promoter]
binding result: binds
